PubChem BioAssay AID1259414, Drosophila RNAi Screening Center, 2018

Purpose: 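Host factors increasing or decreasing Wolbachia levels in cultured fly cells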 (primary screen)
Cells: Drosophila JW18 cells infected with Wolbachia
Reagent: long dsRNA against Drosophila genes, 0.25 µg dsRNA per well of a 384-well plate
Duration: 5 days
Treatment: cells persistently infected with Wolbachia before knock-down; no added drug
Read-out: 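Automated imaging of bacterial rRNA staining divided by host cell count, reported as plate-normalised robust z-score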
Reading the numbers: Wolbachia per cell robust z: higher = more Wolbachia per host cell than the plate typical
Hit rule: 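Active if absolute robust z reaches 1.5 in two or more of three replicates, leaving out multi- or no-target dsRNAs, genes unexpressed in JW18 and A1 wells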
In all, the deposit lists about 24,000 reagents; this is a random part of those with a known target gene and a result. Of all reagents, about 1,210 (5%) were called active. 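Inactive calls also include excluded dsRNAs with several or no targets, genes unexpressed in JW18, and well A1, regardless of score.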 A plus sign joins genes that one reagent is predicted to hit.

CG10973 (GeneID 39447) [DRSC09813]
- Wolbachia per cell robust z, rep 1: -0.379
- Wolbachia per cell robust z, rep 2: 1.31
- Wolbachia per cell robust z, rep 3: 0.37
- Call: inactive

B-H2 (GeneID 32723) [DRSC23012]
- Wolbachia per cell robust z, rep 1: 0.0683
- Wolbachia per cell robust z, rep 2: 0.372
- Wolbachia per cell robust z, rep 3: -0.274
- Call: inactive

B-H2 (GeneID 32723) [DRSC25817]
- Wolbachia per cell robust z, rep 1: -1.15
- Wolbachia per cell robust z, rep 2: -4.02
- Wolbachia per cell robust z, rep 3: -0.583
- Call: inactive

CG15404 (GeneID 33537) [DRSC00418]
- Wolbachia per cell robust z, rep 1: 0.898
- Wolbachia per cell robust z, rep 2: -0.454
- Wolbachia per cell robust z, rep 3: 0.485
- Call: inactive

Top1 (GeneID 32458) [DRSC20295]
- Wolbachia per cell robust z, rep 1: -0.256
- Wolbachia per cell robust z, rep 2: -2.62
- Wolbachia per cell robust z, rep 3: -0.069
- Call: inactive

CG4036 (GeneID 34302) [DRSC02735]
- Wolbachia per cell robust z, rep 1: -0.647
- Wolbachia per cell robust z, rep 2: 0.00873
- Wolbachia per cell robust z, rep 3: -0.775
- Call: inactive

mRRF1 (GeneID 39067) [DRSC10421]
- Wolbachia per cell robust z, rep 1: 0.0133
- Wolbachia per cell robust z, rep 2: -0.176
- Wolbachia per cell robust z, rep 3: -0.157
- Call: inactive

CG7632 (GeneID 40357) [DRSC11842]
- Wolbachia per cell robust z, rep 1: -0.367
- Wolbachia per cell robust z, rep 2: -0.175
- Wolbachia per cell robust z, rep 3: 0.741
- Call: inactive

Zip48C (GeneID 36273) [DRSC06314]
- Wolbachia per cell robust z, rep 1: 0.687
- Wolbachia per cell robust z, rep 2: 1.23
- Wolbachia per cell robust z, rep 3: 0.00201
- Call: inactive

Sorted by “Wolbachia per cell robust z, rep 1” (ascending): some entries from above.
CG4036 (GeneID 34302) [DRSC02735]
- Wolbachia per cell robust z, rep 1: -0.647
- Wolbachia per cell robust z, rep 2: 0.00873
- Wolbachia per cell robust z, rep 3: -0.775
- Call: inactive

mRRF1 (GeneID 39067) [DRSC10421]
- Wolbachia per cell robust z, rep 1: 0.0133
- Wolbachia per cell robust z, rep 2: -0.176
- Wolbachia per cell robust z, rep 3: -0.157
- Call: inactive

Additional entries follow:
asRNA:CR42871 + CG6661 [DRSC10687]
- Wolbachia per cell robust z, rep 1: 0.386
- Wolbachia per cell robust z, rep 2: 0.123
- Wolbachia per cell robust z, rep 3: -0.0886
- Call: inactive

CG34290 (GeneID 5740609) [DRSC38813]
- Wolbachia per cell robust z, rep 1: -0.848
- Wolbachia per cell robust z, rep 2: -0.567
- Wolbachia per cell robust z, rep 3: -0.216
- Call: inactive

CG32669 (GeneID 326229) [DRSC18864]
- Wolbachia per cell robust z, rep 1: 0.241
- Wolbachia per cell robust z, rep 2: 0.243
- Wolbachia per cell robust z, rep 3: -0.0187
- Call: inactive

CG10336 (GeneID 35122) [DRSC02037]
- Wolbachia per cell robust z, rep 1: -0.617
- Wolbachia per cell robust z, rep 2: -0.576
- Wolbachia per cell robust z, rep 3: -0.635
- Call: inactive

Tob (GeneID 32574) [DRSC20294]
- Wolbachia per cell robust z, rep 1: 0.277
- Wolbachia per cell robust z, rep 2: -0.418
- Wolbachia per cell robust z, rep 3: -1.19
- Call: inactive

CG42565 (GeneID 37598) [DRSC04154]
- Wolbachia per cell robust z, rep 1: -0.24
- Wolbachia per cell robust z, rep 2: -0.975
- Wolbachia per cell robust z, rep 3: 0.781
- Call: inactive

CG42556 (GeneID 8674031) [DRSC41404]
- Wolbachia per cell robust z, rep 1: 0.757
- Wolbachia per cell robust z, rep 2: -0.582
- Wolbachia per cell robust z, rep 3: 0.732
- Call: inactive
